Data reported in article PMC9738830.

Target: Amyloid β 1–42 oligomers Aβ 1-42, Homo sapiens (UniProt P05067)
Experiment: sandwich plate assay (chemiluminescent, Scatchard plot)

PrP–ALP (mouse PrPc 23–111 fused to E. coli alkaline phosphatase D101S) 23-111
Kd: 0.56 nM
